Results of unrelated studies side by side (data: NIAID ChemDB).

Common to all: whole-cell or culture tests; organism: HIV-1

Blank or dashed fields: not listed here.

compound,setting,read by,mutations,measure,cell line,strain or isolate,result
CCCCCCCCCCCCCCCCOCCCOP(=O)(O)CO[C@H](CO)Cn1cnc2c(N)ncnc21,-,p24,-,EC50,MT-2,LAI WT,0.007 µM
CC(C)=CCOc1cc(NC(=S)c2ccoc2C)ccc1Cl,-,syncytia,RT-E103K,EC50,CEM,IIIB,0.007 µg/mL
CC(C)=CCOC[C@H]1O[C@@H](n2cc(C)c(=O)n(C)c2=O)[C@H](O[Si](C)(C)C(C)(C)C)C12OS(=O)(=O)C=C2N,-,-,-,EC50,CEM + CEM/0,-,8.5 ± 2.1 µM
Cc1ccc(C)c(C(C)S(=O)(=O)c2c(C)ccc[n+]2[O-])c1,-,syncytia,RT-K103N,EC50,CEM,IIIB,12 µg/mL
CCCCCO[C@]12CS(=O)(=O)O[C@@]13[C@@H](CN2)O[C@@H](n1cc(C)c(=O)[nH]c1=O)[C@@H]3O[Si](C)(C)C(C)(C)C,-,-,-,EC50,CEM,IIIB,>5 µM
CC(=O)c1c(C)nc(-c2ccccc2)nc1NC(=O)c1ccccc1,-,GFP / fluorescence,-,EC50,HeLa,12AG,>50 µM
Cc1cn([C@@H]2O[C@@H]3CN[C@@]4(OCC(C)C)CS(=O)(=O)O[C@@]34[C@H]2O)c(=O)[nH]c1=O,-,-,-,EC50,MT-4,IIIB,>250 µM
COc1ccc(C)cc1CS(=O)(=O)c1cccc[n+]1[O-],-,syncytia,RT-E103K,EC50,CEM,IIIB,48 µg/mL
CCO[C@]12CS(=O)(=O)O[C@@]13[C@@H](CN2)O[C@@H](n1ccc(=O)[nH]c1=O)[C@@H]3O[Si](C)(C)C(C)(C)C,-,-,-,EC50,CEM,IIIB,>50 µM
CCN1c2ncc(CCOc3ccc(C(=O)O)c4c3CCCC4)cc2C(=O)N(C)c2ccc(OC)nc21,-,p24,-,EC50,C8166,WT,<0.1 µM
CC(=O)N1CCC(C(=O)N(CCCN2CCC(Cc3ccc(C(N)=O)cc3)CC2)c2ccc(C)c(Cl)c2)CC1,-,p24,-,EC50,PBMC,R5-08 Clinical isolate,0.00312 µM
Cc1cn([C@@H]2O[C@@H]3CN[C@@]4(OCC5CCOC5)CS(=O)(=O)O[C@@]34[C@H]2O)c(=O)[nH]c1=O,-,-,-,EC50,CEM,IIIB,20 µM
CCN1c2ncc(CCOc3ccc(CCC(=O)O)c4c3CCCC4)cc2C(=O)N(C)c2cccnc21,-,p24,-,EC50,C8166,WT,<0.1 µM
Cc1ccc(C)n1-c1ccc(C(=O)O)c(O)c1,-,p24,-,EC50,PBMC + MT-2,93IN101 R5 CLADE C,4.45 µM
Cc1ccc(C)c(CS(=O)(=O)c2cccc[n+]2[O-])c1,-,syncytia,-,EC50,C8166,IIIB,6.1 µg/mL
CC(C)[C@H](NC(=O)OCc1ccccc1)C(=O)N[C@@H](Cc1ccccc1)[C@@H](O)[C@@H](NCc1ccc(Br)cc1)C(=O)N[C@H](C(=O)NCc1nc2ccccc2[nH]1)C(C)C,-,MTT / p24,-,EC50,MT-4,IIIB,0.0203 µM
C[C@@H]1O[C@H]2O[C@H]3[C@@H](C)OC(c4ccc5c(c4O)C(=O)c4ccc(C[C@@](C)(O)CC(=O)O)c(O)c4C5=O)C[C@H]3O[C@H]2CC1=O,pseudotyped,visual reading / absorbance,-,EC50,TZM-bl,HXB2,21.6 µM
Cc1cc(C#N)cc(C)c1Oc1nc(NC2CCN(Cc3ccc(S(N)(=O)=O)cc3)CC2)nc2sccc12,-,MTT,NNRTI-resistant (RT E138K),EC50,MT-4,IIIB,0.0076 µM
O=C(c1cccc(Br)c1)c1ccc2[nH]c(=O)sc2c1,-,syncytia,-,EC50,CEM,IIIB,3.5 µg/mL
Cc1cn([C@@H]2O[C@H](COS(=O)(=O)c3ccccc3)C3(OS(=O)(=O)C=C3N)[C@H]2O[Si](C)(C)C(C)(C)C)c(=O)n(C)c1=O,-,-,-,EC50,MT-4,-,24 ± 9.7 µM
CCN1c2ncc(CCOc3ccc(C(=O)O)c4c3CCN(C(=O)N(C)C)C4)cc2C(=O)N(C)c2cccnc21,-,p24,RT-K103N Y181C,EC50,C8166,-,<0.1 µM
Cc1cc(/C=C/C#N)cc(C)c1Oc1nc(NC2CCN(Cc3cccc(Br)c3)CC2)nc2ccsc12,-,MTT,NNRTI-resistant (RT F227L V106A),EC50,MT-4,IIIB,0.0936 µM
CC(C)[C@H](NC(=O)OCc1ccccc1)C(=O)N[C@@H](Cc1ccccc1)[C@@H](O)[C@@H](NCc1ccccc1)C(=O)N[C@H](C(=O)NCc1nc2ccccc2[nH]1)C(C)C,-,p24,-,EC50,MT-4,RF,0.14 µM
O=c1ccn(C2C[C@H](CO)[C@@H](CO)C2)c(=O)[nH]1,-,RT activity,-,EC50,H9,IIIB,>10 µg/mL
Cc1occc1C(=S)Nc1ccc(Cl)c(/C=N/OC(C)(C)C)c1,-,syncytia,-,EC50,CEM,IIIB,0.142 µM
Cc1cn([C@@H]2O[C@@H]3CN[C@@]4(O[Si](C)(C)C(C)(C)C)CS(=O)(=O)O[C@@]34[C@H]2O[Si](C)(C)C(C)(C)C)c(=O)[nH]c1=O,-,-,-,EC50,CEM,IIIB,>2 µM
CC(C)[C@H](NC(=O)OCc1ccccn1)C(=O)N[C@@H](Cc1ccccc1)[C@@H](O)C[C@H](Cc1ccccc1)NC(=O)OCc1cccnc1,-,p24,PR-M46I L63P,EC95,MT-4,NL4-3,0.8 µM
O=C(c1cccc(F)c1)c1ccc2c(c1)oc(=O)n2CCN1CCOCC1,-,syncytia,-,EC50,CEM,IIIB,>8 µg/mL
CC(C)=CCc1cc(C(O)C2NC(=O)CNC(=O)C(Cc3c[nH]c4ccccc34)NC(=O)C3CCCN3C(=O)CNC(=O)C(C(C)C)CC(=O)CNC2=O)ccc1O,pseudotyped,visual reading / absorbance,-,EC50,TZM-bl,HXB2,>100 µg/mL
CCO[C@]12CS(=O)(=O)O[C@@]13[C@@H](CN2)O[C@@H](n1cc(C)c(=O)[nH]c1=O)[C@@H]3O[Si](C)(C)CCC(C)(C)C,-,-,-,EC50,CEM,IIIB,>10 µM
CC(=O)OCC1=C[C@@H]2C(=O)[C@]3(C=C(C)[C@H](OC(C)=O)[C@@]3(O)[C@@H]1OC(C)=O)[C@H](C)C[C@@H]1[C@H]2C1(C)C,-,cytopathic effect / MTT,-,EC50,MT-4,clinical isolate A018C AZT-resistant,0.096 µM
CCOC(=O)c1ccc(CN2CCC(Nc3nc(Oc4c(C)cc(/C=C/C#N)cc4C)c4sccc4n3)CC2)cc1,-,MTT,NNRTI-resistant (RT F227L V106A),EC50,MT-4,IIIB,0.0852 µM
COc1cccc2c1c(/C(O)=C\C(=O)C(=O)O)cn2Cc1ccc(F)cc1,-,MTT,-,EC50,MT-4,IIIB,0.59 µM
Cc1cn([C@@H]2O[C@H](COC(=O)N(C)C)C3(OS(=O)(=O)C=C3N)[C@H]2O[Si](C)(C)C(C)(C)C)c(=O)n(C)c1=O,-,-,-,EC50,MT-4,-,>50 µM
Cc1cn([C@@H]2O[C@@H]3CN[C@@]4(C#N)CS(=O)(=O)O[C@@]34[C@H]2O[Si](C)(C)C(C)(C)C)c(=O)[nH]c1=O,-,-,-,EC50,MT-4,IIIB,>50 µM
CCC(=O)c1ccc2c(c1)sc(=O)n2CCN1CCOCC1,-,syncytia,-,EC50,CEM,IIIB,>40 µg/mL
CC1=C(C(=O)Nc2ccc(Cl)c(C(=O)OC(C)C)c2)SCCO1,-,syncytia,RT-Y188H,EC50,CEM,IIIB,2.8 µM
C=CCOC(=O)OC[C@H]1O[C@@H](n2cc(C)c(=O)n(C)c2=O)[C@H](O[Si](C)(C)C(C)(C)C)C12OS(=O)(=O)C=C2N,-,-,-,EC50,CEM + CEM/0,-,>10 µM
O=[N+]([O-])c1ccc[n+]([O-])c1SCc1ccccc1,-,syncytia,RT-K103N,EC50,CEM,IIIB,9.6 µg/mL
CC(C)[C@H](NC(=O)[C@H](NCc1ccc(Cl)cc1)[C@H](O)[C@H](Cc1ccccc1)NC(=O)[C@@H](NC(=O)OCc1ccccc1)C(C)(C)C)C(=O)NCc1nc2ccccc2[nH]1,-,MTT / p24,-,EC50,U-937,IIIB,0.016 µM
CCCCC(=O)c1ccc2c(c1)sc(=O)n2CCN1CCOCC1,-,syncytia,-,EC50,CEM,IIIB,>8 µg/mL
Nc1ccn([C@H]2CC[C@@H](CO)C2)c(=O)n1,-,antigen,-,EC50,H9,IIIB,5 µM
Cc1cc(/C=C/C#N)cc(C)c1Oc1nc(NC2CCN(Cc3ccc(Cl)cc3)CC2)nc2ccsc12,-,MTT,NNRTI-resistant (RT Y188L),EC50,MT-4,IIIB,0.177 µM
Nc1ccn(C2C[C@H](CO)[C@@H](CO)C2)c(=O)n1,-,RT activity,-,EC50,H9,IIIB,>10 µg/mL
CCCCCCCCCCCCCCCCCCOCCOP(=O)(O)CO[C@H](CO)Cn1cnc2c(N)ncnc21,-,p24,RT-M184V,EC50,MT-2,-,0.00004 µM
CCN1c2ncc(CCOc3ccc(C(=O)O)c4c3CCCC4)cc2C(=O)N(C)c2ccc(Cl)nc21,-,p24,RT-K103N Y181C,EC50,C8166,-,<0.1 µM
CC1(C)CC(NC(=O)C(=O)Nc2ccc(Br)cc2)CC(C)(C)N1,-,p24,-,EC50,MT-2,MN,15.93 µM
Cc1cc(C#N)cc(C)c1Oc1nc(NC2CCC(NCc3ccccc3)CC2)nc2ccsc12,-,MTT,NNRTI-resistant (RT E138K),EC50,MT-4,IIIB,0.891 µM
Cc1ccc(C)c(CSc2c(Cl)ccc[n+]2[O-])c1,-,syncytia,-,EC50,CEM,MN,0.4 µg/mL
COc1ccnc2[nH]cc(C(=O)C(=O)N3CCN(C(=O)c4ccccc4)C[C@H]3C)c12,-,syncytia,-,EC50,Cf2Th-CD4+ CCR5+/293T,YU2 WT,4 µM
CCCCC(=O)c1ccc2c(c1)oc(=O)n2CCN1CCCCC1,-,syncytia,-,EC50,CEM,IIIB,>8 µg/mL
Cc1ccc(C)c(CS(=O)(=O)c2ccccn2)c1,-,syncytia,-,EC50,CEM,MN,20 µg/mL
CCCCCCCCCCCCCCCCCCOC[C@H](COP(=O)(O)C(=O)O)OCC,-,p24,RT-K65R,EC50,MT-2,LAI,1240 µM
C=C(C)[C@@H]1CC[C@]2(C(=O)NCCCCCCCC(=O)N[C@@H](CC(C)C)[C@@H](O)CC(=O)O)CC[C@]3(C)[C@H](CC[C@@H]4[C@@]5(C)CC[C@H](O)C(C)(C)[C@@H]5CC[C@]43C)[C@@H]12,-,syncytia,R22A,EC50,HeLa P4 + HeLa,LAI-R(GP41-R22A),<10 µM
CCOC(=O)c1ccc(CN2CCC(Nc3nc(Oc4c(C)cc(C#N)cc4C)c4ccsc4n3)CC2)cc1,-,MTT,NNRTI-resistant (RT E138K),EC50,MT-4,IIIB,0.498 µM
CC(C)[C@H](NC(=O)CCc1nc2ccccc2[nH]1)C(=O)N[C@@H](Cc1ccccc1)[C@@H](O)[C@@H](NCc1ccccc1)C(=O)N[C@H](C(=O)NCc1ccccc1)C(C)C,-,MTT / p24,-,EC50,MT-4,IIIB,0.0545 µM
N#CC1=CC2Nc3ccccc3C2N(c2ccc([N+](=O)[O-])cc2)C1=O,-,GFP / fluorescence,-,EC50,HeLa,10076-4,0.31 µM

For reference, 5 entries again:

| compound | setting | read by | mutations | measure | cell line | strain or isolate | result |
|---|---|---|---|---|---|---|---|
| CCN1c2ncc(CCOc3ccc(CCC(=O)O)c4c3CCCC4)cc2C(=O)N(C)c2cccnc21 | - | p24 | - | EC50 | C8166 | WT | <0.1 µM |
| Cc1ccc(C)c(CS(=O)(=O)c2cccc[n+]2[O-])c1 | - | syncytia | - | EC50 | C8166 | IIIB | 6.1 µg/mL |
| CCOC(=O)c1ccc(CN2CCC(Nc3nc(Oc4c(C)cc(C#N)cc4C)c4ccsc4n3)CC2)cc1 | - | MTT | NNRTI-resistant (RT E138K) | EC50 | MT-4 | IIIB | 0.498 µM |
| COc1ccc(C)cc1CS(=O)(=O)c1cccc[n+]1[O-] | - | syncytia | RT-E103K | EC50 | CEM | IIIB | 48 µg/mL |
| CC(C)[C@H](NC(=O)OCc1ccccc1)C(=O)N[C@@H](Cc1ccccc1)[C@@H](O)[C@@H](NCc1ccccc1)C(=O)N[C@H](C(=O)NCc1nc2ccccc2[nH]1)C(C)C | - | p24 | - | EC50 | MT-4 | RF | 0.14 µM |

Conditions beyond the fields shown may differ between rows. ECn: concentration that inhibits the pathogen or its effect by n%.